In this test the target is DEN2V NS2B-G4SG4-NS3 serine protease (Dengue virus type 2 (DENV-2), UniProt Q91H74). Briefly: DEN2V Protease Inhibition Assay.
`O=C([N-]c1c[n+](Cc2ccc(-c3cncnc3)nc2)no1)Nc1cccc(C(F)(F)F)c1` [Example 103, (3-((6-(pyrimidin-5-yl)pyridin-3-yl)methyl)-1,2,3-oxadiazol-3-ium-5-yl)((3-(trifluoromethyl)phenyl)carbamoyl)amide] showed an IC50 of 1000 to 20000 nM. Consider `O=C([N-]c1c[n+](Cc2ccc(-c3cncnc3)cc2)no1)Nc1cccc(C(F)(F)F)c1` [Example 26, (3-(4-(Pyrimidin-5-yl)benzyl)-1,2,3-oxadiazol-3-ium-5-yl)((3-(trifluoromethyl)phenyl)carbamoyl)amide], for which the 50% inhibitory concentration (IC50) is 1000 to 20000 nM. With `Cc1nn(C)c(C)c1-c1ccc(C[n+]2cc([N-]C(=O)Nc3cccc(C(F)(F)F)c3)on2)cc1` [Example 97], the IC50 lay within 100 to 1000 nM.

As for `Cc1ccncc1-c1ccc(C[n+]2cc([N-]C(=O)Nc3cccc(C(F)(F)F)c3)on2)cc1` [Example 85, (3-(4-(4-methylpyridin-3-yl)benzyl)-1,2,3-oxadiazol-3-ium-5-yl)((3-(trifluoromethyl)phenyl)carbamoyl)amide], the half-inhibitory concentration (IC50) was 1000 to 20000 nM.

With `O=C([N-]c1c[n+](Cc2ccc(-c3cccnc3)cc2)no1)Nc1cccc(C(F)(F)F)c1` [Example 22, (3-(4-(pyridin-3-yl)benzyl)-1,2,3-oxadiazol-3-ium-5-yl)((3-(trifluoromethyl)phenyl)carbamoyl)amide], the half-maximal inhibitory concentration (IC50) is 1000 to 20000 nM. Compound `O=C([N-]c1c[n+](C(c2ccccc2)C(F)(F)F)no1)Nc1cccc(C(F)(F)F)c1` (stereo not shown) [Example 44, (3-(2,2,2-trifluoro-1-phenylethyl)-1,2,3-oxadiazol-3-ium-5-yl)((3-(trifluoromethyl)phenyl)carbamoyl)amide] showed a 50% inhibitory concentration (IC50) of 1000 to 20000 nM.

As to `COc1ncncc1-c1cccc(C[n+]2cc([N-]C(=O)Nc3cccc(C(F)(F)F)c3)on2)c1` [Example 84, (3-(3-(4-methoxypyrimidin-5-yl)benzyl)-1,2,3-oxadiazol-3-ium-5-yl)((3-(trifluoromethyl)phenyl)carbamoyl)amide], the IC50 lay within 1000 to 20000 nM. With `O=C([N-]c1c[n+](Cc2ccc(-c3c(F)nc[nH]c3=O)cc2)no1)Nc1cccc(C(F)(F)F)c1` [Example 107, (3-(4-(4-fluoro-6-oxo-1,6-dihydropyrimidin-5-yl)benzyl)-1,2,3-oxadiazol-3-ium-5-yl)((3-(trifluoromethyl)phenyl)carbamoyl)amide] the figure was 1000 to 20000 nM; with `COc1ncc(-c2ccc(C[n+]3cc([N-]C(=O)Nc4cncc(C(F)(F)F)c4)on3)nc2)c(C)n1` [Example 133, (3-((5-(2-methoxy-4-methylpyrimidin-5-yl)pyridin-2-yl)methyl)-1,2,3-oxadiazol-3-ium-5-yl)((5-(trifluoromethyl)pyridin-3-yl)carbamoyl)amide], 1000 to 20000 nM; with `C[C@@H](c1ccc(-c2cncnc2)cc1)[n+]1cc([N-]C(=O)Nc2cncc(C(F)(F)F)c2)on1` [Example 77, (S)-(3-(1-(4-(pyrimidin-5-yl)phenyl)ethyl)-1,2,3-oxadiazol-3-ium-5-yl)((5-(trifluoromethyl)pyridin-3-yl)carbamoyl)amide], 1000 to 20000 nM. Regarding `O=C([N-]c1c[n+](Cc2ccccc2)no1)Nc1cccc(C(F)(F)F)c1` [Example 6, (3-Benzyl-1,2,3-oxadiazol-3-ium-5-yl)((3-(trifluoromethyl)phenyl)carbamoyl) amide], the IC50 is 1000 to 20000 nM. For the compound `Cc1cc(C[n+]2cc([N-]C(=O)Nc3cccc(C(F)(F)F)c3)on2)ccc1-c1cncnc1C` [Example 101, (3-(3-methyl-4-(4-methylpyrimidin-5-yl)benzyl)-1,2,3-oxadiazol-3-ium-5-yl)((3-(trifluoromethyl)phenyl)carbamoyl)amide], the IC50 was in the range of 1000 to 20000 nM.

Compound `Cc1ncncc1-c1csc(C[n+]2cc([N-]C(=O)Nc3cccc(C(F)(F)F)c3)on2)c1` [Example 110, (3-((4-(4-methylpyrimidin-5-yl)thiophen-2-yl)methyl)-1,2,3-oxadiazol-3-ium-5-yl)((3-(trifluoromethyl)phenyl)carbamoyl)amide] returned an IC50 of 1000 to 20000 nM. The compound `Cc1noc(C)c1-c1ccc(C[n+]2cc([N-]C(=O)Nc3cncc(C(F)(F)F)c3)on2)nc1` [Example 126, (3-((5-(3,5-dimethylisoxazol-4-yl)pyridin-2-yl)methyl)-1,2,3-oxadiazol-3-ium-5-yl)((5-(trifluoromethyl)pyridin-3-yl)carbamoyl)amide] came in with an IC50 of 1000 to 20000 nM. Under `O=C([N-]c1c[n+]([C@@H]2CCC[C@H]2c2ccccc2)no1)Nc1cccc(C(F)(F)F)c1` [Example 59, (3-((1R,2S)-2-phenylcyclopentyl)-1,2,3-oxadiazol-3-ium-5-yl)((3-(trifluoromethyl)phenyl)carbamoyl)amide] stands 1000 to 20000 nM; under `Cc1c(-c2ccc(C[n+]3cc([N-]C(=O)Nc4cccc(C(F)(F)F)c4)on3)cc2)cnn1C` [Example 95, (3-(4-(1,5-dimethyl-1H-pyrazol-4-yl)benzyl)-1,2,3-oxadiazol-3-ium-5-yl)((3-(trifluoromethyl)phenyl)carbamoyl)amide], 1000 to 20000 nM; under `COc1ncnc(C)c1-c1ccc(C[n+]2cc([N-]C(=O)Nc3cccc(C(F)(F)F)c3)on2)nc1` [Example 135, (3-((5-(4-methoxy-6-methylpyrimidin-5-yl)pyridin-2-yl)methyl)-1,2,3-oxadiazol-3-ium-5-yl)((3-(trifluoromethyl)phenyl)carbamoyl)amide], 1000 to 20000 nM.

`Cc1cc(C[n+]2cc([N-]C(=O)Nc3cccc(C(F)(F)F)c3)on2)ccc1-c1c(C)noc1C` [Example 88, (3-(4-(3,5-Dimethylisoxazol-4-yl)-3-methylbenzyl)-1,2,3-oxadiazol-3-ium-5-yl)((3-(trifluoromethyl)phenyl)carbamoyl)amide] displayed an IC50 of 100 to 1000 nM. `Cc1nc(OCCO)ncc1-c1ccc(C[n+]2cc([N-]C(=O)Nc3cccc(C(F)(F)F)c3)on2)cc1` [Example 89, (3-(4-(2-(2-hydroxyethoxy)-4-methylpyrimidin-5-yl)benzyl)-1,2,3-oxadiazol-3-ium-5-yl)((3-(trifluoromethyl)phenyl)carbamoyl)amide] returned an IC50 of 1000 to 20000 nM. The compound `Cc1ncncc1-c1ccc(C[n+]2cc([N-]C(=O)Nc3cccc(C(F)(F)F)c3)on2)cc1` [Example 60, (3-(4-(4-methylpyrimidin-5-yl)benzyl)-1,2,3-oxadiazol-3-ium-5-yl)((3-(trifluoromethyl)phenyl)carbamoyl)amide] registered a half-maximal inhibitory concentration (IC50) of 1000 to 20000 nM. For `Cc1ccccc1-c1ccc(C[n+]2cc([N-]C(=O)Nc3cccc(C(F)(F)F)c3)on2)cc1` [Example 21, (3-((2′-methyl-[1,1′-biphenyl]-4-yl)methyl)-1,2,3-oxadiazol-3-ium-5-yl)((3-(trifluoromethyl)phenyl)carbamoyl)amide], the IC50 lay within 1000 to 20000 nM. `Cc1ncc(-c2ccc(C[n+]3cc([N-]C(=O)Nc4cccc(C(F)(F)F)c4)on3)cc2)n1C` [Example 105, (3-(4-(1,2-dimethyl-1H-imidazol-5-yl)benzyl)-1,2,3-oxadiazol-3-ium-5-yl)((3-(trifluoromethyl)phenyl)carbamoyl)amide] registered an IC50 of 1000 to 20000 nM.

In turn, `Cc1ncnc(OCCN(C)C)c1-c1ccc(C[n+]2cc([N-]C(=O)Nc3cccc(C(F)(F)F)c3)on2)nc1` [Example 123, ((3-((5-(4-(2-(metheyliumyl(methyl)ammonio)ethoxy)-6-methylpyrimidin-5-yl)pyridin-2-yl)methyl)-1,2,3-oxadiazol-3-ium-5-yl)((3-(trifluoromethyl)phenyl)carbamoyl)amide) (2,2,2-trifluoroacetate)] returned a half-maximal inhibitory concentration (IC50) of 1000 to 20000 nM. Turning to `O=C([N-]c1c[n+](Cc2ccc(-c3cncnc3)cn2)no1)Nc1cncc(C(F)(F)F)c1` [Example 125, (3-((5-(pyrimidin-5-yl)pyridin-2-yl)methyl)-1,2,3-oxadiazol-3-ium-5-yl)((5-(trifluoromethyl)pyridin-3-yl)carbamoyl)amide], the concentration for half-maximal inhibition (IC50) lay within 1000 to 20000 nM. Under `Cc1noc(C)c1-c1cccc(C[n+]2cc([N-]C(=O)Nc3cccc(C(F)(F)F)c3)on2)c1` [Example 94, (3-(3-(3,5-dimethylisoxazol-4-yl)benzyl)-1,2,3-oxadiazol-3-ium-5-yl)((3-(trifluoromethyl)phenyl)carbamoyl)amide] stands 1000 to 20000 nM; under `COc1ncc(-c2cccc(C[n+]3cc([N-]C(=O)Nc4cccc(C(F)(F)F)c4)on3)c2)cn1` [Example 53, (3-(3-(2-methoxypyrimidin-5-yl)benzyl)-1,2,3-oxadiazol-3-ium-5-yl)((3-(trifluoromethyl)phenyl)carbamoyl)amide], 1000 to 20000 nM; under `Cc1ncn(C)c1-c1ccc(C[n+]2cc([N-]C(=O)Nc3cccc(C(F)(F)F)c3)on2)cc1` [Example 98, (3-(4-(1,4-dimethyl-1H-imidazol-5-yl)benzyl)-1,2,3-oxadiazol-3-ium-5-yl)((3-(trifluoromethyl)phenyl)carbamoyl)amide], 1000 to 20000 nM. The compound `Cc1ncn(C)c1-c1ccc(C[n+]2cc([N-]C(=O)Nc3cccc(C(F)(F)F)c3)on2)nc1` [Example 118, (3-((5-(1,4-dimethyl-1H-imidazol-5-yl)pyridin-2-yl)methyl)-1,2,3-oxadiazol-3-ium-5-yl)((3-(trifluoromethyl)phenyl)carbamoyl)amide] showed an IC50 of 1000 to 20000 nM. Compound `NC[C@@H](Cc1ccc(-c2ccccc2)cc1)[n+]1cc([N-]C(=O)Nc2cccc(C(F)(F)F)c2)on1` [Example 66, (R)-(3-(1-([1,1′-biphenyl]-4-yl)-3-aminopropan-2-yl)-1,2,3-oxadiazol-3-ium-5-yl)((3-(trifluoromethyl)phenyl)carbamoyl)amide] registered an IC50 of 1000 to 20000 nM.

As to `O=C([N-]c1c[n+](Cc2ccc(I)cc2)no1)Nc1cncc(C(F)(F)F)c1` [Example 55, (3-(4-iodobenzyl)-1,2,3-oxadiazol-3-ium-5-yl)((5-(trifluoromethyl)pyridin-3-yl)carbamoyl)amide], the IC50 is 1000 to 20000 nM.

Compound `COc1ncncc1-c1ccc(C[n+]2cc([N-]C(=O)Nc3cccc(C(F)(F)F)c3)on2)cc1` [Example 62, (3-(4-(4-methoxypyrimidin-5-yl)benzyl)-1,2,3-oxadiazol-3-ium-5-yl)((3-(trifluoromethyl)phenyl)carbamoyl)amide] yielded an IC50 of 1000 to 20000 nM.

In general, IC50 refers to the midpoint of a concentration-inhibition curve. A lower IC50 goes with greater potency in that assay.

The values are drawn from patent publication US20250353853A1, “FLAVIVIRUS INHIBITORS” (IRBM S.P.A., priority 2022, published 2025).
